Reference: article PMC4999853, “Chloroquine Analog Interaction with C2- and Iota-Toxin in Vitro and in Living Cells” (2016)
Where “and” joins values, the source holds several entries; their conditions need not be identical. Identical values can stand only once. Like-named read-outs stand apart in the source and are kept apart here.

By UniProt entry, the sequences of proteins in these tests, tags left out. Residues count along the entry.
UniProt O86171, 182-721 limits assumed: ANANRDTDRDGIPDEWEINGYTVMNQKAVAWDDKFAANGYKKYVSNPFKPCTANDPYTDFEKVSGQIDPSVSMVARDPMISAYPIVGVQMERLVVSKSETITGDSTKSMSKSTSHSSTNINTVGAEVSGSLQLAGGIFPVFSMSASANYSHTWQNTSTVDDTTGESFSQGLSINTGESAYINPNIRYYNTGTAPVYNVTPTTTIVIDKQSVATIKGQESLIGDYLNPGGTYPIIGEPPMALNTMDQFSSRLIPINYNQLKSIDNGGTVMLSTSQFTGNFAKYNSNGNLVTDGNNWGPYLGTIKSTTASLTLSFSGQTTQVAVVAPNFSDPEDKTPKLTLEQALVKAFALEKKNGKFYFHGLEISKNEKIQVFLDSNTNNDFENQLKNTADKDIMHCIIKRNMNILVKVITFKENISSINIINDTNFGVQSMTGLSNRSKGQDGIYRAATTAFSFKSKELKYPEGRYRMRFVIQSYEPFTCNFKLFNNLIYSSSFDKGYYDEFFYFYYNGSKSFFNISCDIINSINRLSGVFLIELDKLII

Columns and labels:
[1] = molecular target: Iota b channels (binding component of Iota-toxin) (Clostridium perfringens, UniProt Q46221); experiment: Titration of Iota b channel conductance in lipid bilayer membranes; settings: for Stability constant K for block of Iota b channels: DiPhPC/n-decane membranes, pH 6, about 20 ng/mL Iota b, 20 °C, mean ± SD of at least three titrations
[2] = molecular target: T1, C2IIa channels (binding component C2II of C2-toxin) (Clostridium botulinum, UniProt O86171); experiment: Titration of C2IIa channel conductance in lipid bilayer membranes; settings: for Stability constant K for block of C2II channels: DiPhPC/n-decane membranes, pH 6, about 10 ng/mL activated C2II, 20 °C, mean ± SD of at least three titrations; for Stability constant K for block of C2II channels / Kd: 150 mM KCl, 10 mM MES-KOH; for Kd: read-out: Half saturation constant KS, C2II channels, KS = 1/K, pH 6, 20 °C
[3] = test system: Iota toxin (Iota a + Iota b) on Vero cells; experiment: pH-dependent membrane translocation of Iota toxin in intact Vero cells (cell rounding); settings: Baf A1-treated Vero cells, 100 ng/mL Ia + 200 ng/mL Ib, pH 4.0 for 15 min, 1 mM compound, further 2 h at 37 °C; vs toxin without compound
[4] = test system: Iota b channels (binding component of Iota-toxin); experiment: Titration of Iota b channel conductance in lipid bilayer membranes; settings: KS Iota b / KS C2IIa
[5] = test system: C2 toxin (C2I + C2IIa) on Vero cells; experiment: pH-dependent membrane translocation of C2 toxin in intact Vero cells (cell rounding); settings: Baf A1-treated Vero cells, 100 ng/mL C2I + 200 ng/mL C2IIa, pH 4.5 for 5 min, compound present during pulse and subsequent incubation (1 mM shown); vs toxin without compound
[6] = molecular target: T1, C2IIa channels (binding component C2II of C2-toxin); settings: given for comparison, ref Bachmeyer et al. (2003) [45], cited from earlier work
[7] = read-out: Half saturation constant KS, Iota b channels, KS = 1/K, 150 mM KCl, 10 mM MES-KOH, pH 6, 20 °C

Row | Structure (SMILES) | Stability constant K for block of Iota b channels ([1]; 150 mM KCl, 10 mM MES-KOH) | Kd [1, 7] [µM] | Stability constant K for block of C2II channels [2] | Kd [2] | Cell rounding after acidic pulse with Iota toxin in presence of compound [3] | Factor by which KS for Iota b is higher than KS for C2IIa [4] | Factor by which KS for C2IIa is smaller than that of chloroquine ([2]; KS chloroquine / KS compound, C2IIa channels) | Cell rounding after acidic pulse with C2 toxin in presence of compound [5] | Stability constant K of binding to Iota b channels (single titration, Figures 1 and 2) ([1]; fit with Equation (2) of the titration of Figure 1, about 70 Iota b channels, 150 mM KCl, 10 mM MES, pH 6.0, 20 °C, 50 mV) [M⁻¹] | Block of Iota b channels reached in the titration ([1]; highest concentration reached 4.03 mM, limited by solubility) | Kd ([1]; read-out: Half saturation constant KS, Iota b channels (single titration, Figure 2), fit of the titration of Figure 1, r^2 = 0.997645) [µM] | Stability constant K for block of C2II channels [6] [M⁻¹] | Kd ([6]; read-out: Half saturation constant KS, C2II channels) [µM]
1 | CC(=O)NCCCCNc1ccnc2cc(Cl)ccc12 | 2.5 ± 0.4 10^3 M^-1 | 400 | 198 ± 15 10^3 M^-1 | 5 µM and 5.1 µM | – | – | – | – | – | – | – | – | –
2 | Nc1ccnc2cc(Cl)ccc12 | 0.82 ± 0.21 10^3 M^-1 | 1200 | 1.5 ± 0.4 10^3 M^-1 | 700 µM | – | – | – | – | – | – | – | – | –
3 | CC(CCCN1C(=O)c2ccccc2C1=O)[n+]1ccc(N)c2ccc(Cl)cc21 (stereo not drawn) | 12.5 ± 2.1 10^3 M^-1 | 80 | 6200 ± 40 10^3 M^-1 | 0.16 µM | significantly less cells were rounded | about 500 | 60 | significantly less cells were rounded | – | – | – | – | –
4 | NCCCCNc1ccnc2cc(Cl)ccc12 | 0.39 ± 0.13 10^3 M^-1 | – | 18.5 ± 2.5 10^3 M^-1 | 54 µM | – | – | – | – | 348 ± 48 | about 50% | 2900 | – | –
5 | CCN(CC)CCCC(C)Nc1ccnc2cc(Cl)ccc12 (stereo not drawn) | – | – | – | – | – | – | – | – | – | – | – | 110000 | 9.1
